The entries are a selection whose mix differs from that of the whole data set. Active and inactive are the calls of the source.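 Rule for the calls: active = inhibition above the average over every tested compound plus 3 SD (cut at about 40% in these data); inactive = the rest.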

The test deals with Hepatitis C virus NS3 helicase. Briefly: HCV NS3 helicase inhibitors, primary screen, biochemical, fluorescence polarization, ChemBridge library (AID 687043). The settings on record: NS3h Cy5-dT15 DNA binding, at 100 µM, active compounds read high. Background: Fluorescence polarisation rises when a labelled molecule tumbles more slowly, as on binding a larger partner.
As a reminder, the inhibition is the relative decrease from the control value, in per cent. As for `CP(=O)(Oc1ccccc1)Oc1ccccc1`, the inhibition is inactive: -6.5%.
As for `CP(=O)(Oc1ccc(Cl)cc1)Oc1ccc(Cl)cc1`, the figure is inactive: 1.6%; as for `CN(C)CCOC(=O)C(O)(c1ccccc1)c1ccccc1`, inactive: 9.1%.
Take `CP(=O)(Oc1ccccc1F)Oc1ccccc1F`: the inhibition is inactive: -8.6%.
As for `CCc1ccc(OP(C)(=O)O)cc1`, the inhibition was inactive: -0.3%.
As for `CP(=O)(Oc1ccc(F)cc1)Oc1ccc(F)cc1`, the figure is inactive: -7.2%.

Source of the values: PubChem BioAssay AID687043 (Milwaukee Institute for Drug Discovery, 2013).
